Measurements reported in paper PMC9445589 (Frontiers in Microbiology, 2022).
For part of these data: Some peptides are written in HELM: one residue between dots, names in brackets for other building blocks, links after the first $. Non-standard residues stand in square brackets, D forms with d. Residues, ends and D or L forms follow the SMILES beside them. Aib = CC(C)(N)C(=O)O

What was measured:
[1] = system: A. baumannii YQ4 transcriptome; test: RNA-seq analysis, differentially expressed genes; assay type: cell-based, Acinetobacter baumannii; conditions: 1/4 MIC (4 μg/ml), M9 minimal medium
[2] = peptide made by a vendor; conditions: whole synthesis, HPLC and mass spectrometry

Compound | genes with decreased transcription level [1] | genes with increased transcription level [1] | purity (crude or final not stated) [2]
CC(=O)N[C@@H](C)C(=O)N[C@@H](CO)C(=O)NC(C)(C)C(=O)N[C@@H](CC(C)C)C(=O)N[C@@H](CCCNC(=N)N)C(=O)N[C@@H](CCCCN)C(=O)N[C@@H](CC(C)C)C(=O)NC(C)(C)C(=O)N[C@@H](CCCCN)C(=O)N[C@@H](CCCNC(=N)N)C(=O)N[C@@H](CC(C)C)C(=O)N[C@@H](CC(C)C)C(N)=O [COG1410, acetyl-AS-Aib-LRKL-Aib-KRLL-amide] (Ac-AS[Aib]LRKL[Aib]KRLL-NH2) | 37 | 55 | 
PEPTIDE1{[ac].A.S.[Aib].L.R.K.L.[Aib].K.R.L.L.[am]}$$$$V2.0 |  |  | 95%
